Only a part is listed here, and it is no random draw. Records with an inconclusive call do not appear. Activity calls are given as the source filed them. No stated cut-off is given here; in the data, active means CPE inhibition above about 20% (passing the limit was not always enough); inconclusive means no clear call, values can overlap the other calls; tested in BHK-21 cells.
Experiment: inhibitors of DENV2 cytopathic effect, primary screen, cell-based, plate reader, single concentration (AID 651640);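 further: 0% = median of neutral control wells and 100% = median of positive control wells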
Settings: DENV2-infected cells, cytopathic effect rescue, at 9.99 µM, stronger effect = higher value

| Structure (SMILES) | CPE inhibition |
| --- | --- |
| CN(C(=O)Cc1ccc(Cl)c(Cl)c1)C1CCCC[C@@H]1N1CCCC1 (stereo partly specified) | inactive: -8.2% |
